{
  "source": "paper PMC3343083",
  "target": "wild-type H5 PB2 ‘627-domain’ (aa. 538–693) (influenza A virus A/HongKong/156/97(H5N1))",
  "data": [
    {"substance": "wild-type H5 nucleoprotein (NP), purified", "values": [
      {"measurement": "Kd", "value": 252, "unit": "nM"},
      {"measurement": "koff", "value": 0.00337, "unit": "s⁻¹"},
      {"measurement": "kon", "value": 13400, "unit": "M⁻¹ s⁻¹"}
    ]}
  ]
}
